T1: NetB (necrotic enteritis toxin B) (Clostridium perfringens)
T1 chain: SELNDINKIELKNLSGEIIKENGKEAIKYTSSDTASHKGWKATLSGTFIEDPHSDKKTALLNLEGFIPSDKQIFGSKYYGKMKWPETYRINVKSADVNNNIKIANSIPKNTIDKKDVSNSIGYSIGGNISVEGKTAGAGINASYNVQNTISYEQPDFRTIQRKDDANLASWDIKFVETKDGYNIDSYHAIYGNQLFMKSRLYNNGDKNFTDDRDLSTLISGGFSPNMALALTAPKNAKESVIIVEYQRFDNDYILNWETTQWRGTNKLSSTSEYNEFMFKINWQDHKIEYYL


Target: T1, NetB (necrotic enteritis toxin B)
Assay: cell-based or functional assay

| Binder | IC50 < 50 nM, NetB cytotoxicity on LMH cells (LDH) [nM] | IC50 < 1 µM, NetB cytotoxicity on LMH cells (LDH) [nM] |
| --- | --- | --- |
| NBX0311 (VHH) VHH: QVQLQESGGGLVQAGGSLRLSCAASGRTFSNADMAWFRQSPGKERESVAAISWSGGRTYYADSVKGRATISRDIAKDTVYLQMNSLKPEDTAVYYCAAGGYSNLPTSYGYWGQGTQVTVSS | ≥ 50 | < 1000 |
| NBX0548 (VHH) VHH: QVQLQQSGGGLVQSGGSLRLSCAASETSLNFDDMRWYRQTPGKRREWVAIINTFPAGTTASYADSVKGRFTISKVNGENTVHLQMNRLKPEDTAVYYCNAGDYWGQGTQVTVSS | < 50 | < 1000 |
| NBX0309 (VHH) VHH: QVQLQQSGGGLVQAGGSLRLSCAASGSTFNNYMIGWFRQAPGKEREFVATISGSGAGTFYADSVRGRFTISRDNAKNTVYLQMNSLKLEDTAGYYCARRMSRSGIFGLRDYDSWGQGTQVTVSS | < 50 | < 1000 |
| NBX0552 (VHH) VHH: QVQLQQSGGGLVQAGGSLRLSCVASGSGSINYMAWHRQTPGRQRELVAVINRTGAARYADSVKDRFTISRDNAENTMYLQMNDLKPDDTAVYYCFASALGAGVYWGQGTQVTVSS | < 50 | < 1000 |
| NBX0551 (VHH) VHH: QVQLQESGGGLVQAGGSLRLSCAASGSIFSRNIILWHRQAPGKQRELVGGINTGGRTNYESSVKGRFTISRDNAKNTVYLQMDRLKPEDTAVYYCNAPSLGYWGQGTQVTVSS | < 50 | < 1000 |
| NBX0550 (VHH) VHH: QVQLQESGGGAVQAGGSLTLSCVASGTVNLMAWYRQTPGRQRELVAVIKGTGTTRYADSVKDRFTISRDNAKNTMYLQMNDLKPDDTALYYCFASVLGAGTYWGQGTQVTVSS | < 50 | < 1000 |
| NBX0513 (VHH) VHH: QVQLQESGGGLVQAGGSLRLSCAASGSGRRVGYMAWYRQTPGKQRELVATISRAGATNYADSVKDRFTISRDNAKNTVYLQMNSLKPDDTAVYYCFASLFDAGTYWGQGTQVTVSS | ≥ 50 | < 1000 |
| NBX0553 (VHH) VHH: QVQLQESGGGLVQPGGSLRLSCAASGSGWRVGYMAWYRQTPGKQRELVATISRAGATRYEDSVKDRFTISRDNAKNTVYLQMNSLKPDDTAVYYCFASIIDAGTYWGQGTPVTVSS | < 50 | < 1000 |
| NBX0507 (VHH) VHH: QVQLQESGGGLVQAGGSLRLSCAASGSGRRVGYMAWYRQTPGKQRELVATISRAGATNYADSVKDRFTISRDNAKNTVYLQMNSLKPDDTAVYYCFASIFDAGTYWGQGTQVTVSS | < 50 | < 1000 |
| NBX0512 (VHH) VHH: QVQLQQSGGGLVQAGGSLRLSCAASGSGRRVGYMAWYRQTPGKQRELVATISRAGATNYADSVKDRFTISRDNAKNTVYLQMNSLKPDDTAVYYCFASVFDAGTYWGQGTQVTVSS | ≥ 50 | < 1000 |
| NBX0503 (VHH) VHH: QVQLQESGGGLVQAGGSLRLSCAASGSGRRVGYMAWYRQTPGKQRESVATISRAGATKYADSVKDRFTISRDNAKDTVYLQMNSLKPDDTAVYYCFASLIDAGTYWGQGTQVTVSS | < 50 | < 1000 |
| NBX0506 (VHH) VHH: QVQLQESGGGLVQAGGSLRVSCAASGSGRRVGYMAWYRQTPGKQRELVATISRAGATNYADSVKDRFTISRDNAKNTVYLQMNSLKPDDTAVYYCFASVFDAGTYWGQGTQVTVSS | < 50 | < 1000 |
| NBX0318 (VHH) VHH: QVQLQESGGGLVQAGGSLRLSCVVSGSIMSIRVMGWYRQAPGKQRELVATMSRGNTINYADSVRGRFTISRDNAKSTVYLQMNSLKPEDTDVYYCAALLDSYYWGQGTQVTVSS | < 50 | < 1000 |
| NBX0301 (VHH) VHH: QVQLQESGGGVVQAGGSLSLSCSPYQRASSLFAMGWFRQSPGKEREFVAGISWNGDKSQYADSVKDRFTISRDNDKNTVFLQMNSLKPEDTAVYYCAAHRASFELGFATHDYDFWGQGTQVTVSS | ≥ 50 | – |
| NBX0310 (VHH) VHH: QVQLQQSGGGVVQAGGSLSLSCSPYQRASSLFAMGWFRQSPGKEREFVAGISWNGDKSQYADSVKDRFTISRDNDKNTVFLQMNSLKPEDTAVYYCAAHRASFELGFATHDYDFWGQGTQVTVSS | < 50 | < 1000 |
| NBX0303 (VHH) VHH: QVQLQESGGGLVQAGGSLRLSCTASGRTLSYWTMGWFRQAPGKEREFVAAINWSSGTRYSDSVRDRFTIDGDTDKTTVYLEMNKMNLDDSAVYYCAAHRASFGLGYQTHEYDFWGQGTQVTVSS | < 50 | < 1000 |
| NBX0308 (VHH) VHH: QVQLQQSGGGLVQAGGSLRLSCTASGRTLSYWTMGWFRQVPGKEREFVAAINWSSGTRYSESVRDRFTIDGDTDKTTVYLEMNKMNLDDSAVYYCAAHRASFGLGYQTHEYDFWGQGTQVTVSS | ≥ 50 | < 1000 |
| NBX0323 (VHH) VHH: QVQLQQSGGGLVQAGGSLRLSCTASGRTLSYWTMGWFRQAPGKEREFVAAINWSSGTRYSDSVRDRFTIDGDTDKTTVYLEMNKMNLDDSAVYYCAAHRASFGLGYQTHEYDFWGQGTQVTVSS | ≥ 50 | < 1000 |
| NBX0324 (VHH) VHH: QVQLQESGGGLVQAGGSLRLTCTASGRTLSYWTMGWFRQAPGKEREFVAAINWSSGTRYSDSVKDRFTIDGDSDKTTVYLQMNSLNLDDSAVYYCAAHRASFGLGYQTHEYDFWGQGTQVTVSS | < 50 | < 1000 |
| NBX0307 (VHH) VHH: QVQLQESGGGLVQAGGSLRLSCTASGRTLSYWTMGWFRQVPGKEREFVAAINWSSGTRYSESVRDRFTIDGDTDKTTVYLEMNKMNLDDSAVYYCAAHRASFGLGYQTHEYDFWGQGTQVTVSS | < 50 | < 1000 |
| NBX0549 (VHH) VHH: QVQLQESGGGLVQAGGSLRLSCTASGSDSSINYMGWYRQAPGKQRVLLAAISRDGRSNYADSVRGRFTISRDNAKNTVDLQMNSLKPEDTAVYYCYVDPLGRVPRWGQGTQVTVSS | < 50 | < 1000 |
